The results in this text go back to publication PMC5829244, “Synergistic effect of mutagenesis and truncation to improve a polyesterase from Clostridium botulinum for polyester hydrolysis” (2018).

What all share (settings): 100 mM potassium phosphate pH 7, 25 °C
In test [1] the target is del71Cbotu_EstA (Clostridium botulinum, UniProt A5I055, S155A).
In test [2] the target is del71Cbotu_EstA (Clostridium botulinum, UniProt A5I055, W302H).
The target in the next test is Cbotu_EstA (Clostridium botulinum, UniProt A5I055).
The target of test [3] is del71Cbotu_EstA (Clostridium botulinum, UniProt A5I055, W157A).
Test [4] concerns the target del71Cbotu_EstA (Clostridium botulinum, UniProt A5I055, F182Y).
In test [5] the target is del71Cbotu_EstA (Clostridium botulinum, UniProt A5I055). As to the kind of experiment: p-nitrophenol release, absorbance […] nm, Michaelis-Menten fit.
In test [6] the target is del71Cbotu_EstA (Clostridium botulinum, UniProt A5I055, S227A).

With `CCCC(=O)Oc1ccc([N+](=O)[O-])cc1`, the Km stood at 1700 µM at del71Cbotu_EstA [1]; 1000 µM on del71Cbotu_EstA [2]; 2500 µM at Cbotu_EstA; 1600 µM at del71Cbotu_EstA [3]; 1200 µM on del71Cbotu_EstA [4]; 1600 µM on del71Cbotu_EstA [5]. In addition, the Michaelis constant (Km) at del71Cbotu_EstA [6] is 1200 µM.
